Values from PubChem BioAssay AID1259414 (Drosophila RNAi Screening Center, 2018).

Assay: 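Genome-wide screen for host control of endosymbiont load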 (primary screen)
Cells: Drosophila JW18 cells infected with Wolbachia
Reagents: long dsRNA against Drosophila genes, 0.25 µg dsRNA per well of a 384-well plate
Timing: 5 days
Challenge: cells persistently infected with Wolbachia before knock-down; no added drug
Detection: 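Automated imaging of bacterial rRNA staining divided by host cell count, reported as plate-normalised robust z-score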
Scale: Wolbachia per cell robust z: higher = more Wolbachia per host cell than the plate typical
Rule for the call: 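Hit when robust z is 1.5 or more, or -1.5 or less, in at least two of three replicates; excludes dsRNAs with several or no targets, genes not expressed in JW18 and well A1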
The screen tested about 24,000 reagents; below is an unselected part of those with a known target gene and a result. In the full data, about 1,210 (5%) were called active. 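Inactive calls also include excluded dsRNAs with several or no targets, genes unexpressed in JW18, and well A1, regardless of score.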

Against tow [DRSC23125], the values are Wolbachia per cell robust z, rep 1 = -3.25; Wolbachia per cell robust z, rep 2 = 0.439; Wolbachia per cell robust z, rep 3 = 2.11; inactive.
After knock-down of tow [DRSC26759] the results were Wolbachia per cell robust z, rep 1 = 0.541; Wolbachia per cell robust z, rep 2 = 0.241; Wolbachia per cell robust z, rep 3 = 0.82; inactive.
With knock-down of CR31292 [DRSC13120], the record shows Wolbachia per cell robust z, rep 1 = -0.404; Wolbachia per cell robust z, rep 2 = 0.168; Wolbachia per cell robust z, rep 3 = 1.39; inactive.
Knock-down of CG33757 [DRSC38884] resulted in: Wolbachia per cell robust z, rep 1 = -0.263; Wolbachia per cell robust z, rep 2 = -4.99; Wolbachia per cell robust z, rep 3 = -0.189; inactive.
Against CG30269 [DRSC04158], the values are Wolbachia per cell robust z, rep 1 = -2.68; Wolbachia per cell robust z, rep 2 = 0.374; Wolbachia per cell robust z, rep 3 = -0.516; inactive.
Cyp4e3 [DRSC03306] scored Wolbachia per cell robust z, rep 1 = -0.172; Wolbachia per cell robust z, rep 2 = 1.16; Wolbachia per cell robust z, rep 3 = -0.0429; inactive.
With knock-down of Cyp4e3 [DRSC26425], the record shows Wolbachia per cell robust z, rep 1 = 1.12; Wolbachia per cell robust z, rep 2 = 0.618; Wolbachia per cell robust z, rep 3 = 1.97; inactive.
Knock-down of CG14160 [DRSC10161] gave: Wolbachia per cell robust z, rep 1 = -2.13; Wolbachia per cell robust z, rep 2 = -0.113; Wolbachia per cell robust z, rep 3 = 0.812; inactive.
For CG15172 [DRSC02473], the entry reads Wolbachia per cell robust z, rep 1 = -9.18; Wolbachia per cell robust z, rep 2 = 0.579; Wolbachia per cell robust z, rep 3 = 0.121; inactive.
Knock-down of CG15172 [DRSC27372] gave: Wolbachia per cell robust z, rep 1 = 0.556; Wolbachia per cell robust z, rep 2 = 0.843; Wolbachia per cell robust z, rep 3 = 0.664; inactive.
CNBP [DRSC04116] showed Wolbachia per cell robust z, rep 1 = -0.048; Wolbachia per cell robust z, rep 2 = -5.66; Wolbachia per cell robust z, rep 3 = -2.27; active.
Silencing of CNBP [DRSC21317] came out at: Wolbachia per cell robust z, rep 1 = 0.706; Wolbachia per cell robust z, rep 2 = -0.686; Wolbachia per cell robust z, rep 3 = 1.28; inactive.
Against CNBP [DRSC29556] the deposit lists Wolbachia per cell robust z, rep 1 = 1.05; Wolbachia per cell robust z, rep 2 = 0.882; Wolbachia per cell robust z, rep 3 = 0.101; inactive.
Against Clic [DRSC19364] the deposit lists Wolbachia per cell robust z, rep 1 = -1.64; Wolbachia per cell robust z, rep 2 = -1.04; Wolbachia per cell robust z, rep 3 = -10.4; active.
Silencing of bark [DRSC00635] gave: Wolbachia per cell robust z, rep 1 = -0.645; Wolbachia per cell robust z, rep 2 = -5.86; Wolbachia per cell robust z, rep 3 = 2.11; inactive.
bark [DRSC27011] gave Wolbachia per cell robust z, rep 1 = -0.777; Wolbachia per cell robust z, rep 2 = -0.0741; Wolbachia per cell robust z, rep 3 = -2.45; inactive.
With knock-down of scat [DRSC02722], the record shows Wolbachia per cell robust z, rep 1 = 0.464; Wolbachia per cell robust z, rep 2 = -0.0112; Wolbachia per cell robust z, rep 3 = -0.125; inactive.
Depletion of scat [DRSC27076] gave: Wolbachia per cell robust z, rep 1 = -0.242; Wolbachia per cell robust z, rep 2 = 1.65; Wolbachia per cell robust z, rep 3 = 1.44; inactive.
CngA [DRSC06580] scored Wolbachia per cell robust z, rep 1 = -0.44; Wolbachia per cell robust z, rep 2 = -0.263; Wolbachia per cell robust z, rep 3 = 0.337; inactive.
Depletion of CngA [DRSC07362] resulted in: Wolbachia per cell robust z, rep 1 = 0.133; Wolbachia per cell robust z, rep 2 = -2.18; Wolbachia per cell robust z, rep 3 = -0.541; inactive.
For CngA [DRSC23533] the deposit lists Wolbachia per cell robust z, rep 1 = -2.28; Wolbachia per cell robust z, rep 2 = 1.25; Wolbachia per cell robust z, rep 3 = -7.86; inactive.
With knock-down of CG10969 [DRSC09811] the results were Wolbachia per cell robust z, rep 1 = 0.91; Wolbachia per cell robust z, rep 2 = 0.0449; Wolbachia per cell robust z, rep 3 = 0.622; inactive.
CG10969 [DRSC29502] showed Wolbachia per cell robust z, rep 1 = -0.935; Wolbachia per cell robust z, rep 2 = 0.0362; Wolbachia per cell robust z, rep 3 = -1.67; inactive.
For SPoCk [DRSC11675], the entry reads Wolbachia per cell robust z, rep 1 = 0.939; Wolbachia per cell robust z, rep 2 = -0.826; Wolbachia per cell robust z, rep 3 = 0.915; inactive.
After knock-down of SPoCk [DRSC11706], the screen gave Wolbachia per cell robust z, rep 1 = 1.59; Wolbachia per cell robust z, rep 2 = 1.34; Wolbachia per cell robust z, rep 3 = 1.1; inactive.
Depletion of SPoCk [DRSC11844] resulted in: Wolbachia per cell robust z, rep 1 = 1.33; Wolbachia per cell robust z, rep 2 = -0.668; Wolbachia per cell robust z, rep 3 = -0.32; inactive.
After knock-down of SPoCk [DRSC11845] the results were Wolbachia per cell robust z, rep 1 = 0.872; Wolbachia per cell robust z, rep 2 = -0.0221; Wolbachia per cell robust z, rep 3 = -7.83; inactive.
For SPoCk [DRSC24007] the deposit lists Wolbachia per cell robust z, rep 1 = 0.0303; Wolbachia per cell robust z, rep 2 = 1.83; Wolbachia per cell robust z, rep 3 = 1.62; active.

Copied from the list.
Under “Wolbachia per cell robust z, rep 1”, scat [DRSC27076] shows -0.242
CG30269 [DRSC04158], Wolbachia per cell robust z, rep 2: 0.374
Under “Wolbachia per cell robust z, rep 3”, SPoCk [DRSC24007] is entered as 1.62
CG10969 [DRSC09811], Wolbachia per cell robust z, rep 2: 0.0449
